Data reported in the supplement of paper PMC9931576.
Human monoclonal antibodies against the spike receptor-binding domain (heavy:light variable regions). IC50 against pseudoviruses bearing the spike of naturally observed variants; lower = stronger; >10 µg/ml means not reached at the top dose. No active / inactive call. The stated detection limit is 0.0005 µg/ml; values near or below 0.001 µg/ml lie at the floor of the assay.

How the values were obtained:
Assay in all cases: pseudovirus neutralization IC50; higher = weaker neutralization
[1] = target: SARS-CoV-2 Omicron BA.1 spike pseudovirus
Description: (§1)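 Single-round VSV luciferase pseudovirus mixed with antibody dilutions for 1 h and put on Huh-7 cells for about a day; IC50 from the dose curve.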

[2] = target: SARS-CoV-2 Omicron BA.2 spike pseudovirus
Description: as §1

[3] = target: SARS-CoV-2 Omicron BA.2.75 spike pseudovirus
Description: as §1

[4] = target: SARS-CoV-2 Omicron BA.2.75.2 spike pseudovirus
Description: as §1

[5] = target: SARS-CoV-2 Omicron BA.5 spike pseudovirus
Description: as §1

[6] = target: SARS-CoV-2 Omicron BM.1.1.1 spike pseudovirus
Description: as §1

[7] = target: SARS-CoV-2 Omicron BQ.1.1 spike pseudovirus
Description: as §1

[8] = target: SARS-CoV-2 Omicron BR.2 spike pseudovirus
Description: as §1

[9] = target: SARS-CoV-2 Omicron CA.1 spike pseudovirus
Description: as §1

[10] = target: SARS-CoV-2 Omicron XBB spike pseudovirus
Description: as §1

[11] = target: SARS-CoV-2 early D614G spike pseudovirus
Description: as §1

Binder	pseudovirus neutralization IC50 [1] [µg/mL]	pseudovirus neutralization IC50 [2] [µg/mL]	pseudovirus neutralization IC50 [3] [µg/mL]	pseudovirus neutralization IC50 [4] [µg/mL]	pseudovirus neutralization IC50 [5] [µg/mL]	pseudovirus neutralization IC50 [6] [µg/mL]	pseudovirus neutralization IC50 [7] [µg/mL]	pseudovirus neutralization IC50 [8] [µg/mL]	pseudovirus neutralization IC50 [9] [µg/mL]	pseudovirus neutralization IC50 [10] [µg/mL]	pseudovirus neutralization IC50 [11] [µg/mL]
BD58-0445 (protein) chain 1: EVQLVESGGGLVQPGGSLRLSCAASGFTFSSYEMNWVRQAPGKGLEWVSYISSSGSTIYYADSVKGRFTISRDNAKNSLYLQMNSLRAEDTAVYYCASSSGPHNYNYGMDVWGQGTTVTVSS chain 2: QSVLTQPPSASGTPGQRVTISCSGSSSNIGSNYVYWYQQLPGTAPKLLIYRNNQRPSGVPDRFSGSKSGTSASLAISGLRSEDEADYYCAAWDDSLSGLVFGGGTKLTVL	0.171	0.0573	> 10	> 10	> 10	> 10	> 10	> 10	> 10	> 10	> 10
BD56-436 (protein) chain 1: QVQLVESGGGVVQPGRSLRLSCVASGFSFRSYAMHWVRQAPGKGLEGVAVIWNDGSNKNYADSVKGRFTISRDNSKNTLYLQMNSLKAEDTAVYYCAREGISIAAGGDDAFDIWGQGTMVTVSS chain 2: DIQMTQSPSSLSASAGDTVTITCRASQSVSSFLNWYQQTPGKAPKLLIYAASSLQSGVPSRFSGGGSGTDFTLTISSLQPEDFATYYCQQSYNAPYTFGQGTKLDIK	0.0143	0.00734	0.0115		5.04		> 10			0.131	0.00434
BD58-0467 (protein) chain 1: EAQLVESGGGVVRPGGSLRLSCAGSGFTFDDYGMSWVRQAPGKGLEWVSGINWNGGSTGYADSVKGRFTISRDNAKNSLYLQMNSLRAEDTALYHCASVDYYGSGDDASDIWGQGTMVTVSS chain 2: EIVLTQSPATLSLSPGERATLSCRASQSVSSYLAWYQQKPGQAPRLLIYDAFNRATGIPARFSGSGSGTDFTLTISSLEPEDFAVYYCQQRSNWPYTFGQGTKLEIK	0.185	0.00456	0.895	> 10	0.00309	> 10	0.04	> 10	> 10	> 10	> 10
BD58-0407 (protein) chain 1: QITLKESGPTLVKPTQTLTLTCTFSGFSLSTSGVSVGWIRQPPGKALEWLALIYWDDDKRYSPSLKSRLTITKDTSKNQVVLTMTDMDPVDTATYYCAHNYHSSGWFWGQGTLVTVSS chain 2: AIQMTQSPSSLSASVGDRVTITCRASQGIRNDLGWYQQKPGKAPKLLIYAASSLQSGVPSRFSGSGSGTDFTLTISSLQPEDFATYYCLQDYSYPFTFGPGTKVDIK	> 10	4.13	> 10	> 10	0.11	> 10	> 10	> 10	> 10	> 10	> 10
BD58-0429 (protein) chain 1: EVQLVESGGGLIQPGGSLRLSCAASGFTVTSNYMSWVRQAPGKGLEWVSVIYSGGSTFYADSVKGRFTISRDIPRNTLYLQMNSLRAEDTAVYYCARLTVAAAGDAFDLWGQGTMVTVSS chain 2: QSVLTQPPSVSAAPGQKVTISCSGSSSNIGNNYISWYQQLPGTAPKLLIYDNNKRPSGIPDRFSGSKSGTSATLGITGLQTGDEADYYCGTWDSSLSAVVFGGGTKLTVL	> 10	0.495	0.355	0.848	0.229	> 10	1.45	> 10	> 10	> 10	> 10
BD58-0415 (protein) chain 1: EVQLVQSGAEVKKPGESLKISCKGSGYSFTSYWIGWVRQMPGKGLEWMGIIYPGDSDTRYSPSFQGQVTISADKSISTAYLQWSSLKASDTAMYYCATCDILTVCDYWGQGTLVTVSS chain 2: EIVLTQSPGTLSLSPGERATLSCRASQSVSSGYLAWYQKKPGQAPRLLIYDASSRATGIPDRFSGSGSGTDFTLTISRLEPEDFAVYYCQQYGSSIFTFGPGTKVDIK	> 10	0.963	> 10	> 10	1.24	> 10	> 10	> 10	> 10	> 10	> 10
BD58-0433 (protein) chain 1: QVQLVQSGAEVKKPGASVKVSCRASGYTFTNYGISWVRQAPGQGLEWMGWISAYDGNKKYAQKFQGRVTMTTDTSTSTAYMELRSLRSDDTAVYYCARTSSNWPQELDYWGQGTLVTVSS chain 2: QSALTQPASVSGSPGQSITISCTGTSSDVGGYNYVSWYQQHPGKAPKLMIYDVSNRPSGVSNRFSGSKSGNTASLTISGLQAEDEADYYCSSFTSGSTWVFGGGTKLTVL	0.288	0.0597	0.433	> 10	0.021	> 10	> 10	> 10	> 10	> 10	> 10
BD58-0417 (protein) chain 1: EVQLLESGGGLVQPGESLRLSCAASGFTFSSYAMSWVRQAPGKGLEWVSAISGSGAGTYYADSVKGRFTFSRDNSKNTLYLQMNSLRAEDTAVYYCAKSTWLQLASSRIFDSWGQGTLVTVSS chain 2: NFMLTQPHSVSESPGKTVIISCTGSSGSIASNYVQWYQQRPGSAPTTVIYEDNQRPSGVPDRFSGSIDSSSNSASLTISGLKTEDEADYYCQSSDGTNWVFGGGTKLTVL	> 10	> 10	> 10	> 10	> 10	> 10	> 10	> 10	> 10	> 10	> 10
BD56-431 (protein) chain 1: EVQLVESGGGLIQPGGSLRLSCAASGFTVSSSYMNWVRQGPGKGLEWVSVIYTGGTTYYADSVKGRFTISRDNSKNALYLQMNSLRVDDTALYYCARGQQEGWLQSGGFDIWGQGTMVTVSS chain 2: QSALTQPPSASGSPGQSVNISCTGTSSDVGGSNYVSWYQQHPDKAPKLILSEVSKRPSGVPDRFSGSKSGNTASLTVSGLQAEDEADYFCSSYAGHHNFVFGTGTKVTVL	0.00243	0.00212	0.00189		> 10		> 10			> 10	0.00134
BD56-433 (protein) chain 1: EVHLEESGGGLVKPGGSLRLSCAASGFAFITYTMNWVRQSPGKGLEWVSSISSSGRYIYYADSVKGRFTISRDNDENSLYLQMNSLRAEDTAVYYCARVGAREDREWELRGAYLDVWGKGTTVSVSS chain 2: EIVLTQSPGTLSLSPGERATLSCRASQTLSSNSLAWYQQKPGQAPRLLIFGASTRATGIPDRVSGSGSGTDFTLTISRLEPEDFAVYYCQRYGNSAPITFGQGTRLEIK	0.454	0.305	0.281		> 10		> 10			> 10	0.001
BD58-0435 (protein) chain 1: EVQLVESGGGLVQPGGSLRLSCAASGFTVSSNYMSWVRQAPGKGLEWVSVIYSGDGTYYADSVKGRFTISRDHSKNMLYLQMNSLRVDDTAVYYCAIVDYADDDYWGQGTLVTVSS chain 2: SYELTQPSSVSVSPGQTARITCSGDVLAKKYGRWFQQKPGQAPVQVIYKDSERPSGIPERFSGSSSGTTVTLTISGAQVEDEADYYCYSAADNNWVFGGGTKLTVL	0.0571	0.0221	> 10	> 10	> 10	> 10	> 10	> 10	> 10	> 10	> 10
